Compound potency records, mixed from different reports. Data source: NIAID ChemDB in PubChem.

All rows: whole-cell or culture tests; organism: Herpes simplex virus 1

Neighbouring rows are from separate reports. ECn is the concentration giving n% inhibition of infection, replication or growth. Two numbers with a dash give a range or band. Blank or dashed fields: not listed here.

{"smiles": "O=c1[nH]c(=O)n(C[C@]2(CO)C[C@H]2CO)cc1/C=C/Cl", "cell line": "HEL", "endpoint": "EC50", "method": "plaque count", "result": "0.7 µg/mL"}
{"smiles": "CC(=O)OCCOCN1C(N)=CC(N)=NS1(=O)=O", "strain or isolate": "F", "cell line": "E6SM", "endpoint": "EC50", "result": ">400 µg/mL"}
{"smiles": "Cc1cn([C@@H]2O[C@H](CO)[C@@H](O)[C@@H]2F)c(=O)[nH]c1=O", "strain or isolate": "KOS", "cell line": "PRK", "endpoint": "EC50", "method": "cytopathic effect", "result": "<0.04 µg/mL"}
{"smiles": "O=c1[nH]c(=O)n([C@H]2C[C@H](O)[C@@H](COP3(=O)OCc4cccc(-c5ccccc5)c4O3)O2)cc1/C=C/Br", "strain or isolate": "KUPKA (TK+)", "cell line": "VERO", "endpoint": "EC50", "method": "plaque count", "result": "0.41 µg/mL"}
{"smiles": "CCCCCCCCCCCCCCCCCCOCCCOP1(=O)CO[C@@H](Cn2ccc(N)nc2=O)CO1", "cell line": "MRC-5", "endpoint": "EC50", "result": "0.35 µM"}
{"smiles": "C/C1=C\\C=C\\C2(C)C=C(CO[C@H]3O[C@H](CO)[C@H](O)[C@H](O)[C@H]3O)C(C)CC23OC([O-])C(C3=O)C(O)/C=C/C2(C)C=C(CO)C(C)CC23OC([O-])C(C3=O)C(O)/C(C)=C/C=C/C2C=C(CO[C@H]3O[C@H](CO)[C@H](O)[C@H](O)[C@H]3O)C(C)CC23OC([O-])C(C3=O)C(O)/C=C/C2(C)C=C(CO)C(C)CC23OC([O-])C(C3=O)C1O", "strain or isolate": "KOS", "cell line": "VERO", "endpoint": "EC50", "method": "cytopathic effect", "result": "11 µg/mL"}
{"smiles": "Nc1nc2c(ncn2COC2COP(=O)(O)OC2)c(=O)[nH]1", "strain or isolate": "ACG-R", "cell line": "MRC-5", "endpoint": "EC50", "method": "plaque count", "result": "3–6 µM"}
{"smiles": "CC(C)(C)NC(=O)CN(C(=O)[C@H]1CC[C@@]2(C)C3CC=C4C[C@@H](O)CC[C@]4(C)C3CC[C@]12C)c1ccccc1", "strain or isolate": "KOS", "cell line": "Vero cells", "endpoint": "EC50", "method": "plaque count", "result": "20 µM"}
{"smiles": "CC(=O)OCCOCN1C(=O)C=CN(COCCO)S1(=O)=O", "strain or isolate": "VMW1837 (TK-)", "cell line": "E6SM", "endpoint": "EC50", "result": ">400 µg/mL"}
{"smiles": "Nc1nc2c(ncn2COCCO)c(=O)[nH]1", "strain or isolate": "KOS", "cell line": "HEL", "endpoint": "EC50", "method": "cytopathic effect", "result": "0.2 µg/mL"}
{"smiles": "CC1(C)C[C@H]2[C@H](OC(=O)[C@H](O)[C@@H](NC(=O)c3ccccc3)c3ccccc3)C3=C(COC3=O)C[C@](C)(O)[C@H]2C1", "strain or isolate": "McIntyre", "cell line": "VERO", "endpoint": "EC50", "method": "cytopathic effect", "result": "3.4 µg/mL"}
{"smiles": "O=C(NCc1ccc(Cl)cc1)c1c[nH]c2ccc(CCCO)cc2c1=O", "strain or isolate": "294", "endpoint": "EC50", "method": "plaque count", "result": "14 µM"}
{"smiles": "O=c1[nH]c(=O)n([C@H]2C[C@H](O)[C@@H](CO)O2)cc1I", "strain or isolate": "KOS", "cell line": "HEL", "endpoint": "EC50", "method": "cytopathic effect", "result": "0.1 µg/mL"}
{"smiles": "Nc1nc(NC2CC2)c2ncn(COCCCP(=O)(O)O)c2n1", "cell line": "MRC-5", "endpoint": "EC50", "result": ">100 µM"}
{"smiles": "CS/C=C/C(=O)NCCCCNC(=O)/C=C/SC", "endpoint": "EC50", "method": "plaque count", "result": "<20 µg/mL"}
{"smiles": "CC(C)c1ccc(O)c(O)c(=O)c1", "strain or isolate": "Clinical isolate", "cell line": "VERO", "endpoint": "EC50", "method": "plaque count", "result": "1.94 µM"}
{"smiles": "C/C(=N\\NC(=S)N(C)C1CC2CCC1CC2)c1ccccn1", "strain or isolate": "HF", "cell line": "BHK-21/4", "endpoint": "EC50", "method": "plaque count", "result": "0.49 µg/mL"}
{"smiles": "CC1(C)C[C@H]2[C@@H](OC(=O)[C@H](O)[C@@H](NC(=O)c3ccccc3)c3ccccc3)C34COC(=O)C3(C4)C[C@@](C)(O)[C@H]2C1", "strain or isolate": "McIntyre", "cell line": "VERO", "endpoint": "EC50", "method": "cytopathic effect", "result": "4.2 µg/mL"}
{"smiles": "O=C(O)P(=O)(O)O", "strain or isolate": "McIntyre", "cell line": "MEF", "endpoint": "EC50", "method": "plaque count", "result": "78.1 µg/mL"}
{"smiles": "O=c1[nH]c(=O)n([C@H]2C[C@H](O)[C@@H](CO)O2)cc1/C=C/Br", "strain or isolate": "MP", "cell line": "HELF", "endpoint": "EC50", "method": "plaque count", "result": "0.011 µg/mL"}
{"smiles": "C=C(C)[C@@H]1CCc2c(O)c(O)c(=O)cc(C)c2C1", "strain or isolate": "Clinical isolate", "cell line": "HFF", "endpoint": "EC50", "method": "plaque count", "result": "0.24 µM"}
{"smiles": "O=C(O)Cc1cn([C@H]2C[C@H](O)[C@@H](CO)O2)c(=O)[nH]c1=O", "strain or isolate": "KOS", "cell line": "PRK", "endpoint": "EC50", "method": "cytopathic effect", "result": "600 µM"}
{"smiles": "Nc1ncnc2c1ncn2[C@@H]1OCC(CO)=C1F", "endpoint": "EC50", "result": ">100 µg/mL"}
{"smiles": "O=c1[nH]c(=O)n([C@@H]2O[C@H](CO)[C@@H](O)[C@@H]2O)cc1/C=C/Cl", "strain or isolate": "MP", "cell line": "HELF", "endpoint": "EC50", "method": "plaque count", "result": "0.017 µg/mL"}
{"smiles": "CCCCCCCCCCCCCCCCOCCCOP(=O)(O)CCCOCn1cnc2c(N)nc(N)nc21", "cell line": "MRC-5", "endpoint": "EC50", "result": "40.3 µM"}
{"smiles": "C/C(=N\\NC(N)=S)c1ccccn1", "strain or isolate": "HF", "cell line": "BHK-21/4", "endpoint": "EC50", "method": "plaque count", "result": "1.1 µg/mL"}
{"smiles": "Nc1nc(F)nc2c1ncn2[C@@H]1C=C(CO)[C@@H](O)[C@H]1O", "strain or isolate": "B2006 (TK-)", "cell line": "E6SM", "endpoint": "EC50", "method": "cytopathic effect", "result": "≥40 µg/mL"}
{"smiles": "CC(=O)O[C@H]1O[C@@H](SC2=N/C(=C\\c3ccccc3)C(=O)N2c2ccccc2)[C@H](OC(C)=O)[C@@H](OC(C)=O)[C@@H]1OC(C)=O", "strain or isolate": "McIntyre", "cell line": "VERO", "endpoint": "EC50", "method": "ELISA", "result": ">100 µM"}
{"smiles": "Nc1ccn([C@@H]2O[C@H](CO)[C@@H](O)[C@@H]2O)c(=O)n1", "strain or isolate": "KOS", "cell line": "BALB/3T3", "endpoint": "EC50", "method": "cytopathic effect", "result": "0.2 µg/mL"}
{"smiles": "CC1(C)C[C@H]2C=C(COC(=O)[C@H](O)[C@@H](NC(=O)c3ccccc3)c3ccccc3)[C@@]3(C=O)C[C@]3(C)[C@H]2C1", "strain or isolate": "McIntyre", "cell line": "VERO", "endpoint": "EC50", "method": "cytopathic effect", "result": "7.8 µg/mL"}
{"smiles": "CCCc1cn([C@H]2C[C@H](O)[C@@H](COP(=O)(O)O)O2)c(=O)[nH]c1=O", "strain or isolate": "CL 101 (TK-)", "cell line": "PRK", "endpoint": "EC50", "method": "cytopathic effect", "result": ">797 µg/mL"}
{"smiles": "CCOP(=O)(CCCN1CC(Cn2c(=O)n(C(=O)c3ccccc3)c(=O)c3ccccc32)N=N1)OCC", "cell line": "HEL", "endpoint": "EC50", "method": "cytopathic effect", "result": "17 µM"}
{"smiles": "Cc1cn([C@@H]2O[C@H](CO)[C@@H](O)[C@@H]2F)c(=O)[nH]c1=O", "strain or isolate": "MP", "cell line": "HELF", "endpoint": "EC50", "method": "plaque count", "result": "0.003 µg/mL"}
{"smiles": "O=c1cc(/C=C/c2ccccc2O)c2ccc3occ(-c4ccc(-c5ccccc5)cc4)c3c2o1", "endpoint": "EC50", "method": "cytopathic effect", "result": "250 µg/mL"}
{"smiles": "Nc1nc2c(ncn2C[C@]2(CO)C[C@H]2CO)c(=O)[nH]1", "strain or isolate": "Tomioka", "cell line": "MRC-5", "endpoint": "EC50", "method": "plaque count", "result": "0.77 µg/mL"}
{"smiles": "CC1=CC(=O)N(c2ccccc2)S(=O)(=O)N1COCCO", "strain or isolate": "KOS", "cell line": "E6SM", "endpoint": "EC50", "result": ">400 µg/mL"}
{"smiles": "O=c1[nH]c(=O)n([C@@H]2O[C@H](CO)[C@@H](O)[C@@H]2O)cc1/C=C/I", "strain or isolate": "VR-3", "cell line": "HELF", "endpoint": "EC50", "method": "plaque count", "result": "0.014 µg/mL"}
{"smiles": "CC(=O)OCCOCN1C(=N)/C(=C(\\C)O)C(N)=NS1(=O)=O", "strain or isolate": "McIntyre", "cell line": "E6SM", "endpoint": "EC50", "result": ">400 µg/mL"}
{"smiles": "Nc1ncnc2c1ncn2[C@@H]1CC[C@@H](O)[C@H]1O", "strain or isolate": "KOS", "endpoint": "MIC", "result": ">400 µg/mL"}
{"smiles": "O=c1[nH]c(=O)n([C@H]2C[C@H](O)[C@@H](CO)O2)cc1/C=C/Br", "strain or isolate": "KOS", "cell line": "HEL", "endpoint": "EC50", "method": "cytopathic effect", "result": "0.01 µg/mL"}
{"smiles": "Nc1nc2c(ncn2C[C@]2(CO)C[C@H]2CO)c(=O)[nH]1", "strain or isolate": "KOS", "cell line": "VERO", "endpoint": "EC50", "method": "cytopathic effect", "result": "1.3 µg/mL"}
{"smiles": "Nc1nccc2c1ncn2[C@@H]1CC[C@@H](O)[C@H]1O", "strain or isolate": "KOS", "endpoint": "MIC", "result": ">400 µg/mL"}
{"smiles": "CCc1cn([C@H]2C[C@H](O)[C@@H](COP(=O)(O)O)O2)c(=O)[nH]c1=O", "strain or isolate": "B2006 (TK-)", "cell line": "HEP-2", "endpoint": "EC50", "method": "cytopathic effect", "result": ">820 µg/mL"}
{"smiles": "Nc1ccn([C@@H]2O[C@H](CO)[C@@H](O)[C@@H]2O)c(=O)n1", "strain or isolate": "NOL", "endpoint": "MIC", "result": "4.4 µg/mL"}
{"smiles": "C/C(=N\\NC(=S)N(C)C1CCCCCC1)c1ccccn1", "strain or isolate": "HF", "cell line": "BHK-21/4", "endpoint": "EC50", "method": "plaque count", "result": "0.21 µg/mL"}
{"smiles": "C/C1=C\\C=C\\C2(C)C=C(CO[C@H]3O[C@H](CO)[C@H](O)[C@H](O)[C@H]3O)C(C)CC23OC([O-])C(C3=O)C(O)/C=C/C2(C)C=C(CO)C(C)CC23OC([O-])C(C3=O)C(O)/C(C)=C/C=C/C2C=C(CO[C@H]3O[C@H](CO)[C@H](O)[C@H](O)[C@H]3O)C(C)CC23OC([O-])C(C3=O)C(O)/C=C/C2(C)C=C(C=O)C(C)CC23OC([O-])C(C3=O)C1O", "strain or isolate": "KOS", "cell line": "VERO", "endpoint": "EC50", "method": "cytopathic effect", "result": "11 µg/mL"}
{"smiles": "Nc1nc(N)c2ncn(COCCCP(=O)(O)O)c2n1", "cell line": "MRC-5", "endpoint": "EC50", "result": ">100 µM"}
{"smiles": "O=c1[nH]c(=O)n([C@H]2C[C@H](O)[C@@H](CO)O2)cc1CCCl", "cell line": "VERO", "endpoint": "EC50", "method": "cytopathic effect", "result": "<0.01 µg/mL"}
{"smiles": "C/C1=C\\C=C\\C2(C)C=C(CO)C(C)CC23OC([O-])C(C3=O)C(O)/C=C/C2(C)C=C(CO)C(C)CC23OC([O-])C(C3=O)C(O)/C(C)=C/C=C/C2C=C(CO)C(C)CC23OC([O-])C(C3=O)C(O)/C=C/C2(C)C=C(C=O)C(C)CC23OC([O-])C(C3=O)C1O", "strain or isolate": "KOS", "cell line": "VERO", "endpoint": "EC50", "method": "cytopathic effect", "result": "35 µg/mL"}
{"smiles": "CC(=O)OCCOCN1C(C)=CC(N)=[N+](c2ccccc2)S1(=O)=O", "strain or isolate": "B206 (TK-)", "cell line": "E6SM", "endpoint": "EC50", "result": ">400 µg/mL"}
{"smiles": "O=c1[nH]c(=O)n([C@H]2C[C@H](O)[C@@H](CO)O2)cc1I", "cell line": "HEP-2", "endpoint": "EC50", "method": "cytopathic effect", "result": "<0.3 µg/mL"}
{"smiles": "Nc1ccn(C[C@@H](CO)OCP(=O)(O)O)c(=O)n1", "endpoint": "MIC", "result": "4 µg/mL"}
{"smiles": "Nc1nc(N)c2ncn(COC(CO)CO)c2n1", "strain or isolate": "F", "cell line": "VERO", "endpoint": "EC50", "method": "plaque count", "result": ">100 µM"}
{"smiles": "Nc1ncnc2c1ncn2C[C@@H](CO)OCP(=O)(O)O", "strain or isolate": "TK-", "endpoint": "MIC", "result": "2 µg/mL"}
{"smiles": "Cc1cc(C2CCCCC2)n(O)c(=O)c1", "strain or isolate": "Clinical isolate", "cell line": "HFF", "endpoint": "EC50", "method": "plaque count", "result": "0.14 µM"}

The last 6 rows once more:

smiles | strain or isolate | cell line | endpoint | method | result
CC(=O)OCCOCN1C(C)=CC(N)=[N+](c2ccccc2)S1(=O)=O | B206 (TK-) | E6SM | EC50 | - | >400 µg/mL
O=c1[nH]c(=O)n([C@H]2C[C@H](O)[C@@H](CO)O2)cc1I | - | HEP-2 | EC50 | cytopathic effect | <0.3 µg/mL
Nc1ccn(C[C@@H](CO)OCP(=O)(O)O)c(=O)n1 | - | - | MIC | - | 4 µg/mL
Nc1nc(N)c2ncn(COC(CO)CO)c2n1 | F | VERO | EC50 | plaque count | >100 µM
Nc1ncnc2c1ncn2C[C@@H](CO)OCP(=O)(O)O | TK- | - | MIC | - | 2 µg/mL
Cc1cc(C2CCCCC2)n(O)c(=O)c1 | Clinical isolate | HFF | EC50 | plaque count | 0.14 µM